Assay results taken from PMC11022072 (2024).

B1: bovine lactoferrin (Lf) (natural protein)
chain: APRKNVRWCTISQPEWFKCRRWQWRMKKLGAPSITCVRRAFALECIRAIAEKKADAVTLDGGMVFEAGRDPYKLRPVAAEIYGTKESPQTHYYAVAVVKKGSNFQLDQLQGRKSCHTGLGRSAGWIIPMGILRPYLSWTESLEPLQGAVAKFFSASCVPCIDRQAYPNLCQLCKGEGENQCACSSREPYFGYSGAFKCLQDGAGDVAFVKETTVFENLPEKADRDQYELLCLNNSRAPVDAFKECHLAQVPSHAVVARSVDGKEDLIWKLLSKAQEKFGKNKSRSFQLFGSPPGQRDLLFKDSALGFLRIPSKVDSALYLGSRYLTTLKNLRETAEEVKARYTRVVWCAVGPEEQKKCQQWSQQSGQNVTCATASTTDDCIVLVLKGEADALNLDGGYIYTAGKCGLVPVLAENRKSSKHSSLDCVLRPTEGYLAVAVVKKANEGLTWNSLKDKKSCHTAVDRTAGWNIPMGLIVNQTGSCAFDEFFSQSCAPGADPKSRLCALCAGDDQGLDKCVPNSKEKYYGYTGAFRCLAEDVGDVAFVKNDTVWENTNGESTADWAKNLNREDFRLLCLDGTRKPVTEAQSCHLAVAPNHAVVSRSDRAAHVKQVLLHQQALFGKNGKNCPDKFCLFKSETKNLLFNDNTECLAKLGGRPTYEEYLGTEYVTAIANLKKCSTSPLLEACAFLTR
B2: N-lobe of M. bovis LbpB in the His-BAP-MBP vector (BLI construct) (domain or fragment)
chain: CGGGSFNNPSTIVIGQSKMIEKSDQSKDASAAKDDDNANADTKNKADSRLTMPVLGSVLAIPKRNQAYDKKKLTHLEEHVPLDENNITTAHTNPLPALTKELQERYEGGKIYQSDDKYKFVKAGWIFTGLRPDETIKTDEDTDQPKQYTKGDGYLYYYGDNPTTGLAKGVANYTGHWDFVTDVKRERESTITETTGRQAFGGGSGYKMDSGFGDEVGATSFAEQVFGQYAPRQGNHRAVFKADFDAKKLTGTLSTKQKAIASSPETYVDRYDIDATIKGNRFAGSAIAKNTKSSFLEPNFFNKNADNRLEGGFYGENAEELAGKFLTNDNSVFAVFAGKQD
modifications: biotin on the biotin-acceptor peptide (biotinylated in vivo)

What was measured:
[1] = target: m7 (biotin on the biotin-acceptor peptide (biotinylated in vivo)); assay: BLI; holo-Lf
[2] = target: B1; assay: BLI; holo-Lf

Binder: B1
- Kd [1]: 0.205 µM

Binder: B2
- Kd [2]: 0.98 µM
